We go through 46 molecules from PubChem BioAssay AID435030 (The Scripps Research Institute Molecular Screening Center, 2010).

The list shows a part of the results, in another mix than the full data. Calls of active or inactive are those of the source. No stated cut-off is given here; in the data, active means inhibition above about 12%; inactive means the rest.

This assay is described as follows: growth inhibition of E. coli expressing H. pylori AddAB, primary screen, AddAB inhibitor project, absorbance (AID 435030).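 Further: 0% = vehicle wells of infected cells.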 Conditions: at 11.9 µM, stronger effect = higher value.
A word on the inhibition: it is the change of the read-out against control, counted positive when it falls. With `CC(C)(C)C(=O)NC(Sc1ncccn1)C(Cl)(Cl)Cl` (stereo unspecified), the inhibition is inactive: -1.79%.
In the case of `CN(CCCl)Cc1cc(Cl)c(NC2=NCCN2)c(Cl)c1`, the inhibition is inactive: -1.9%.
With `CCOP(=O)(Nc1ccc(C)cn1)OCC` the figure was inactive: -1.13%.
With `O=P1(Nc2ccccn2)COc2ccccc2OC1` the figure was inactive: 3.61%; with `CCC1=CC2Cc3nc4ccc(Cl)cc4c(N)c3C(C1)C2` (stereo unspecified), inactive: 5.01%.
As to `CCOP(=O)(NC(=NC(C)c1ccccc1)NC(C)c1ccccc1)OCC` (stereo unspecified), the inhibition is inactive: -0.72%.
With `O=[As](O)(c1ccccc1Br)c1ccccc1Br` the figure was inactive: -0.58%; with `CC1(CBr)Cn2c(nc3ccccc3c2=O)S1` (stereo unspecified), inactive: 3.11%.
With `CC(C)/C=N\N=C(\N)N[N+](=O)[O-]` the figure was inactive: -1.1%; with `CN(C(=O)Cc1ccc(Cl)c(Cl)c1)[C@@H]1CCCC[C@H]1N1CCCC1`, inactive: 1.42%.
Take `COc1ccccc1CNC(=O)COC(=O)C(O)(c1ccccc1)c1ccccc1`: the inhibition is inactive: -0.17%.
For `O=C(/C=C/c1ccccc1)OC1CN2CCC1CC2` (stereo unspecified), the inhibition was inactive: -0.77%.
With `CN(C)C1(CNC(=O)c2ccc(S(C)(=O)=O)cc2)CCCCC1` the figure was inactive: 3.39%.
As for `Cc1nn(-c2ccccc2)c2c1P(=O)(N1CCOCC1)N(C)C(c1ccccc1)=N2` (stereo unspecified), the figure is inactive: 0.94%; as for `CC1CCC(C(C)C)C(OP(=O)(Nc2ccccn2)c2ccccc2)C1` (stereo unspecified), inactive: 3.77%.
With `Cc1ccc(C(=O)OC2CN3CCC2CC3)cc1` (stereo unspecified) the figure was inactive: 3.5%; with `O=P1(Nc2ccc(Br)cn2)COc2ccccc2OC1`, inactive: -0.25%.
Turning to `NS(=O)(=O)c1cccc(NC(=O)COC(=O)C(O)(c2ccccc2)c2ccccc2)c1`, the inhibition was inactive: 1.61%.
For `Cc1ccc(OCC(=O)OC2CN3CCC2CC3)cc1` (stereo unspecified), the inhibition is inactive: 4.28%.
Regarding `O=[As](O)(c1cccs1)c1cccs1`, the inhibition is inactive: 0.74%.
On to `Nc1cccc([As](=O)(O)c2ccccc2)c1`, for which the inhibition was inactive: 1.69%.
As to `O=P1(Nc2ncccn2)COc2ccccc2OC1`, the inhibition was inactive: -0.25%.
With `Nc1ccccc1[As](=O)(O)c1ccccc1` the figure was inactive: 0.51%.
Regarding `O=C(O)COc1ccc([As](=O)(O)O)cc1[N+](=O)[O-]`, the inhibition is inactive: -1.89%.
For `CS(=O)(=O)c1cc([N+](=O)[O-])c2no[n+]([O-])c2c1`, the inhibition was inactive: 1.97%.
As for `CCOP1(=S)c2c(C)nn(CCC#N)c2N=C(c2ccccc2F)N1C` (stereo unspecified), the figure is inactive: 0.17%; as for `O=P(Nc1nccs1)(c1ccccc1)c1nc2ccccc2s1` (stereo unspecified), active: 82%.
Consider `O=P(Nc1nccs1)(Oc1ccccc1)Oc1ccccc1`, for which the inhibition is inactive: -0.91%.
With `CN(C)C(=O)c1cc([N+](=O)[O-])cc2c1-c1c(cc([N+](=O)[O-])cc1[N+](=O)[O-])C2=O` the figure was inactive: 2.92%; with `O=[N+]([O-])c1ccc2c(c1)nnn2O`, inactive: 0.94%; with `CN(C(=O)Cc1ccc(Cl)c(Cl)c1)[C@H]1CC[C@@]2(CCCO2)C[C@@H]1N1CCCC1`, inactive: -1.09%.
On to `N#CCCN(C(=O)COC(=O)C(O)(c1ccccc1)c1ccccc1)c1ccc(F)cc1`, for which the inhibition is inactive: -1.54%.
Turning to `CCOP1(=S)c2c(C)nn(CCC#N)c2N=C(c2ccc(F)cc2)N1C` (stereo unspecified), the inhibition was inactive: -0.93%.
With `CN(C(=O)Cc1ccccc1)[C@@H]1CC[C@]2(CCCO2)C[C@H]1N1CCCC1` the figure was inactive: 2.43%; with `NC(=O)Nc1ccc([As](=O)(O)O)cc1`, inactive: 0.78%.
As for `O=[As](O)(c1cccc(O)c1)c1cccc(O)c1`, the figure is inactive: 1.73%.
Turning to `Cc1cccc(OCC(=O)OC2CN3CCC2CC3)c1` (stereo unspecified), the inhibition is inactive: 3.97%.
In the case of `COc1cc(C(=O)NCC2(N3CCOCC3)CCCCC2)cc(Cl)c1OC(C)C`, the inhibition is inactive: -2.56%.
As for `O=[As](O)(O)c1cccnc1`, the figure is inactive: -0.51%; as for `CS(=O)(=O)c1ccc(Cl)c(NC(=O)COC(=O)C(O)(c2ccccc2)c2ccccc2)c1`, inactive: 0.43%.
On to `O=C(OC1CN2CCC1CC2)c1ccc(Cl)cc1` (stereo unspecified), for which the inhibition was inactive: 0.77%.
For `COc1cc(C2NCCC3(OCCO3)C2(C)C)cc(OC)c1OC` (stereo unspecified), the inhibition is inactive: 1.29%.
With `CCOP(=O)(Nc1cccc2ccccc12)OCC` the figure was inactive: 1.24%; with `CCCOP(=S)(Nc1nc(N)cc(=O)[nH]1)OCCC`, inactive: -2.23%.
As for `Cc1ccc(NCCc2c([N+](=O)[O-])cc([N+](=O)[O-])cc2[N+](=O)[O-])cc1`, the figure is inactive: -1.91%; as for `Nc1cccc2c([As](=O)(O)O)cccc12`, inactive: -0.48%.
